# Primary screen of a compound library

Values are the deposited “Percent Effect”, in %.
The controls that fix the scale are not given in the record; negative values are as filed.
The entries come from a sample that favours strong results.

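Growth of Mycobacterium tuberculosis over 3 days (7H9 medium with glucose and tyloxapol); the read-out is not stated. Concentration: 500 µM. Higher reads as more growth inhibition (inferred: compounds with an IC50 in retests scored well above the rest). Of about 18,000 compounds tested this way, about 1,400 (7.9%) reached 50% or more in at least one test.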

SMILES | effect
O=C1CCN(Cc2cc(Br)cc3c2OCC3)CCN1 | -6.452
CS(=O)(=O)N1CCC(Cc2ccccc2)C1 (configuration not stated) | 63.39
Cc1cccc(CS(=O)(=O)NCc2ccncc2)c1 | 43.67
CN(Cc1ccccc1)C(=O)CN | 26.1
COCCCN(CCO)c1nccn2nc(C)cc12 | 39.03
Cc1cc(C)c(C(=O)N2CC(CO)C2)o1 | 3.299
CN(Cc1nccn1C1CC1)CC1(C)COC1 | 8.357
Cc1ccc(NC(=O)CCN2CCN(C)CC2)cc1C | 31.93
NC1CCN(Cc2ccccc2F)CC1 | 17.44
CC(C(=O)NCCc1ccc(O)cc1)n1cccn1 (configuration not stated) | 10.38
NCC(CO)Cc1ccncc1 (configuration not stated) | -11.73
CC(C)C(=O)CNC(=O)C(O)c1ccccc1 (configuration not stated) | 21.76
CNCc1nc2c(s1)CCCC2 | 58.46
Cc1nc(C)c(C(=O)NC(C)(C)C)s1 | 9.305
CCn1c(=O)n(CCC(=O)NC(N)=O)c2ccccc21 | 0.04916
N#Cc1ccccc1CN1CCC2(CC1)[C@H](O)C[C@@H]2O | -1.407
CCN(C(=O)NC(C)C)C(C)CS(=O)(=O)CC (configuration not stated) | -4.29
COCCCNCc1ccc2c(c1)OCCO2 | -1.157
N[C@@H]1CCO[C@H]1c1ccc(=O)[nH]c1 | 1.534
Nc1ccnn1Cc1ccccn1 | 1.504
CC(=O)N1CCN(c2ccc3nnnn3n2)CC1 | -2.24
CN(CC(=O)NCCCO)C(=O)c1ccccc1 | 7.201
O=C(NCc1cccnc1)NCc1cc[nH]n1 | -13.36
CC(C)(CNC(=O)c1nccnc1N)N1CCOCC1 | 11.77
CCn1cc(CNC2(C(=O)OC)CC2)cn1 | 8.928
Cc1ccncc1NS(=O)(=O)Cc1ccccc1 | -1.966
CCCN1CCCC(C(=O)Nc2cccc(C)n2)C1 (configuration not stated) | 11.84
CN(C)c1ccc(C(=O)N2CCC(O)CC2)cc1 | 12.18
CSc1ncc(CN2C[C@@H]3CCC[C@H](C2)C(=O)N3)cn1 | 36.54
NCc1cnc2ccsc2c1 | 7.796
COc1ccc(-c2ccnc(CO)c2)c(OC)c1 | 43.99
Cc1ccncc1NC1CS(=O)(=O)c2ccccc21 (configuration not stated) | 96.08
Cn1c(SCC(N)=O)nc2ccsc2c1=O | 6.343
Cc1ccnc(NC(=O)C2SCCS2)n1 | -0.535
Cc1ccc(C(=O)NCC(C)(C)N(C)C)o1 | -0.7409
C/C=C/c1ccc(OCCNC)c(OC)c1 | 5.108
CN(Cc1ccc(Oc2ccccc2)cc1)C(=O)CN | 96.77
COCC(O)CNc1nc(CC(C)C)ns1 (configuration not stated) | 28.22
O=C(N[C@H]1CCCNC1)c1cccc(F)c1Cl | 11.84
COc1ccc(N2CCN(CCCN)CC2)cc1 | 30.59
COc1ccc(Br)c(S(=O)(=O)NCCCN)c1 | 44.59
COc1ccc(CSc2nnc(O)[nH]2)cc1Cl | 26.76
Cn1nc(CCN)c2ccccc21 | -8.416
Cc1cc(N2CCCC(NS(C)(=O)=O)C2)nc(C)n1 (configuration not stated) | -7.928
COC(=O)c1ccc(CCNC(=O)C2CCCO2)cc1 (configuration not stated) | 64.63
O=C(c1c(O)cccc1F)N1CCc2cnccc21 | 29.52
Cn1cc(Br)c(=O)c(NC(=O)c2cc(Cl)ccn2)c1 | 5.704

3 of the entries, repeated:

For Cc1ccnc(NC(=O)C2SCCS2)n1 the result was -0.535%.
For COCCCNCc1ccc2c(c1)OCCO2 the result was -1.157%.
For O=C(N[C@H]1CCCNC1)c1cccc(F)c1Cl the result was 11.84%.

From ChEMBL document CHEMBL3988442, “University of Dundee, Small-Polar-MMV Screening Library” (2021).